Measurements published in patent publication US20260308536A1, “NOVEL URICASE VARIANTS AND METHODS OF USE THEREOF” (priority 2023, published 2026).

Test system: O=c1[nH]c(=O)c2[nH]c(=O)[nH]c2[nH]1
Assay: purified protein, by the assay type
Conditions: other: role: substrate; wild type Aspergillus flavus uricase (WT); pH 10.5; 25.0 °C

Aspergillus flavus uricase, wild type, SEQ ID NO: 7 (Aspergillus flavus)
Km: 290 ± 30 µM
